Results of unrelated studies side by side (data: NIAID ChemDB).

Common to all: tests in culture; agent: Herpes simplex virus 1; method: plaque count; endpoint: EC50

Blank or dashed fields: not listed here. Conditions beyond the fields shown may differ between rows. ECn is the concentration giving n% inhibition of infection, replication or growth.

compound	cells	strain or isolate	value
COc1ccc2nc3cc(Cl)ccc3c(Nc3cccnc3)c2c1	VERO 76		>100 µM
Cc1ccc(OP(=O)(O)C(=O)O)cc1	VERO		3 µM
O=c1[nH]c(=O)n([C@@H]2C[C@@H](O)[C@H](CO)O2)cc1/C=C/Br	U373-MG		1 µM
CO[C@H]1[C@@H](O)C[C@H](O[C@H]2[C@@H](O)C[C@H](O[C@H]3[C@@H](O)C[C@H](O[C@H]4CC[C@@]5(C)[C@H](CC[C@@H]6[C@@H]5CC[C@]5(C)[C@@H](C7=CC(=O)OC7)CC[C@]65O)C4)O[C@@H]3C)O[C@@H]2C)O[C@@H]1C	VERO	29R	0.26 µM
COc1ccc2nc3cc(Cl)ccc3c(NCCC[C@@H]3CCCN4CCCC[C@H]34)c2c1	VERO 76		>3 µM
O=C(O)C(Br)P(=O)(O)O		F	280 µM
COC(=O)c1cc(O)c(O)c(O)c1	HEL	KOS	6.1 µg/mL
O=C(O)P(=O)(O)O	VERO		45 µM
CC(=O)O[C@H]1[C@@H](O)C[C@H](O[C@H]2[C@@H](O)C[C@H](O[C@H]3[C@@H](O)C[C@H](O[C@H]4CC[C@@]5(C)[C@H](CC[C@@H]6[C@@H]5CC[C@]5(C)[C@@H](C7=CC(=O)OC7)CC[C@]65O)C4)O[C@@H]3C)O[C@@H]2C)O[C@@H]1C	VERO	29R	0.34 µM
CC(=O)O[C@H]1C[C@H](n2cc(/C=C/Br)c(=O)[nH]c2=O)O[C@@H]1COP1(=O)OCc2ccccc2O1	VERO	B2006 (TK-)	>128 µg/mL
C[C@H]1O[C@@H](O[C@H]2CC[C@@]3(C)[C@H](CC[C@@H]4[C@@H]3CC[C@]3(C)[C@@H](C5=CC(=O)OC5)C(O)C[C@]43O)C2)C[C@H](O)[C@@H]1O[C@@H]1O[C@H](CO)[C@@H](O)[C@H](O)[C@H]1O	VERO	29R	0.6 µM
CCCCCC(=O)O[C@H]1C[C@H](n2cc(/C=C/Br)c(=O)[nH]c2=O)O[C@@H]1COP1(=O)OCc2cccc(C)c2O1	VERO	B2006 (TK-)	>128 µg/mL
COc1ccc2nc3cc(Cl)ccc3c(N3CCN(c4ccccc4)CC3)c2c1	VERO 76		>100 µM
O=C(O)CP(=O)(O)O		F	190 µM
Nc1c2c(-c3ccc(Br)cc3)c3c(=O)[nH]c(=O)[nH]c3nc2nc(=O)n1-c1ccccc1	VERO		30 µg/mL
O=C(O)C(F)P(=O)(O)O		F	130 µM
CC[C@H](C)[C@H](N)C(=O)O[C@H]1C[C@H](n2cc(/C=C/Br)c(=O)[nH]c2=O)O[C@@H]1COP1(=O)OCc2cccc(C)c2O1	VERO	B2006 (TK-)	>128 µg/mL
O=C(O)C[C@@H]1C(=O)O[C@H]2[C@@H]3OC(=O)c4cc(O)c(O)c(O)c4-c4c(cc(O)c(O)c4O)C(=O)OC[C@H]2O[C@@H](OC(=O)c2cc(O)c(O)c(O)c2)[C@@H]3OC(=O)c2cc(O)c(O)c3c2[C@H]1[C@H](O)C(=O)O3	A549		17.02 µM
CCCCCCCCCC(=O)O[C@H]1C[C@H](n2cc(/C=C/Br)c(=O)[nH]c2=O)O[C@@H]1COP1(=O)OCc2cccc(C)c2O1	VERO	B2006 (TK-)	>128 µg/mL
O=c1[nH]c(=O)c2c(-c3cccc([N+](=O)[O-])c3)c3c(=O)[nH]cnc3nc2[nH]1	VERO		10 µg/mL
O=C(Oc1ccccc1)P(=O)(O)Oc1ccccc1	VERO		15 µM
C[C@H]1O[C@@H](O[C@H]2CC[C@]3(C=O)[C@H]4CC[C@]5(C)[C@@H](C6=CC(=O)OC6)CC[C@]5(O)[C@@H]4CC[C@]3(O)C2)C[C@H](O)[C@@H]1O	VERO	29R	0.11 µM
O=C1O[C@@H]2[C@@H](OC(=O)c3cc(O)c(O)c(O)c3-c3c1cc(O)c(O)c3O)[C@@H](O)O[C@@H]1COC(=O)c3cc(O)c(O)c(O)c3-c3c(O)c(O)c4oc(=O)c5c(c(O)c(O)c6oc(=O)c3c4c65)-c3c(cc(O)c(O)c3O)C(=O)O[C@@H]21	A549		10.25 µM
Nc1nc2c(ncn2COCCO)c(=O)[nH]1	GMK		0.2 µg/mL
CC(C)NCC(O)c1ccc(O)c(O)c1	HEL	KOS	102 µg/mL
C[C@]12CC[C@H](O)C[C@H]1CC[C@@H]1[C@@H]2C[C@@H](O)[C@]2(C)[C@@H](C3=CC(=O)OC3)CC[C@]12O	VERO	KOS	3.5 µM
CC(C)C(=O)O[C@H]1C[C@H](n2cc(/C=C/Br)c(=O)[nH]c2=O)O[C@@H]1COP1(=O)OCc2ccccc2O1	VERO	KUPKA (TK+)	0.61 µg/mL
N#Cc1c(NC(=O)Nc2ccccc2)nc2[nH]c(=O)[nH]c(=O)c2c1-c1ccc(Br)cc1	VERO		20 µg/mL
CCOC(=O)c1cc(O)c(O)c(O)c1	HEL	KOS	6.1 µg/mL
Nc1ncnc2c1ncn2[C@@H]1O[C@H](CO)[C@@H](O)[C@@H]1O			15 µM
CC(=O)CCC(=O)O[C@H]1C[C@H](n2cc(/C=C/Br)c(=O)[nH]c2=O)O[C@@H]1COP1(=O)OCc2cccc(C)c2O1	VERO	KUPKA (TK+)	1.57 µg/mL
N#Cc1c(-c2ccc(Br)cc2)c2c(=O)[nH]c(=O)[nH]c2[nH]c1=O	VERO		40 µg/mL
CCC(=O)O[C@H]1C[C@H](n2cc(/C=C/Br)c(=O)[nH]c2=O)O[C@@H]1COP1(=O)OCc2cccc(C)c2O1	VERO	B2006 (TK-)	>64 µg/mL
O=C(O)P(=O)(O)O			10 µM
N#Cc1c(N)nc2[nH]c(=O)[nH]c(=O)c2c1-c1cccc([N+](=O)[O-])c1	VERO		50 µg/mL
Cc1cccc2c1OP(=O)(OC[C@H]1O[C@@H](n3cc(/C=C/Br)c(=O)[nH]c3=O)C[C@@H]1OC(=O)[C@H](C)N)OC2	VERO	B2006 (TK-)	>128 µg/mL
O=c1[nH]c(=O)n([C@H]2C[C@H](O)[C@@H](CO)O2)cc1/C=C/Br	HELA TK-		<0.03 µM
O=c1[nH]c(=O)n([C@H]2C[C@H](O)[C@@H](COP3(=O)OCc4c(Cl)cccc4O3)O2)cc1/C=C/Br	VERO	KUPKA (TK+)	0.23 µg/mL
COP(=O)(O)C(=O)O	VERO		>500 µM
Cc1cc(=O)oc2cc(O)c(O)cc12	HEL	KOS	16 µg/mL
Nc1nc2c(ncn2COCCO)c(=O)[nH]1	U373-MG		0.8 µM
CCOC(=O)P(=O)(O)O	VERO		>500 µM
O=C(O)P(=O)(O)O	GMK		12.13 µg/mL
CC(=O)O[C@H]1C[C@H](O[C@H]2[C@@H](O)C[C@H](O[C@H]3[C@@H](O)C[C@H](O[C@H]4CC[C@@]5(C)[C@H](CC[C@@H]6[C@@H]5CC[C@]5(C)[C@@H](C7=CC(=O)OC7)CC[C@]65O)C4)O[C@@H]3C)O[C@@H]2C)OC(C)[C@H]1O[C@@H]1O[C@H](CO)[C@@H](O)[C@H](O)[C@H]1O	VERO	KOS	0.54 µM
CCN(CC)CC(O)CNc1c2ccc(Cl)cc2nc2ccc(OC)cc12	VERO 76		>7 µM

For reference, 5 entries again:

| compound | cells | strain or isolate | value |
|---|---|---|---|
| O=c1[nH]c(=O)c2c(-c3cccc([N+](=O)[O-])c3)c3c(=O)[nH]cnc3nc2[nH]1 | VERO |  | 10 µg/mL |
| CCC(=O)O[C@H]1C[C@H](n2cc(/C=C/Br)c(=O)[nH]c2=O)O[C@@H]1COP1(=O)OCc2cccc(C)c2O1 | VERO | B2006 (TK-) | >64 µg/mL |
| O=c1[nH]c(=O)n([C@H]2C[C@H](O)[C@@H](COP3(=O)OCc4c(Cl)cccc4O3)O2)cc1/C=C/Br | VERO | KUPKA (TK+) | 0.23 µg/mL |
| CCCCCCCCCC(=O)O[C@H]1C[C@H](n2cc(/C=C/Br)c(=O)[nH]c2=O)O[C@@H]1COP1(=O)OCc2cccc(C)c2O1 | VERO | B2006 (TK-) | >128 µg/mL |
| CC(=O)O[C@H]1[C@@H](O)C[C@H](O[C@H]2[C@@H](O)C[C@H](O[C@H]3[C@@H](O)C[C@H](O[C@H]4CC[C@@]5(C)[C@H](CC[C@@H]6[C@@H]5CC[C@]5(C)[C@@H](C7=CC(=O)OC7)CC[C@]65O)C4)O[C@@H]3C)O[C@@H]2C)O[C@@H]1C | VERO | 29R | 0.34 µM |